# US20040091855A1, “Method for production of antivirals by use of HIV-derived HR1 peptides, and trimers formed therefrom” (priority 2002, published 2004)
# Assays:
# [1] = Thermal stability (Tm) by CD signal at 222 nm; format: physicochemical; details: at 10 μM
# Procedure: (§1) Helicity was assessed by circular dichroism (“CD”) as follows. Briefly, CD spectra were obtained using a spectrometer equipped with a thermoelectric temperature controller. The spectra was obtained at 25° C. with 0.5 nanometer (nm) steps from 200 to 260 nm, with a 1.5 nm bandwith, and a typical averaging time of 4 seconds/step. After the cell/buffer blank was subtracted, spectra were smoothed using a third-order least-squares polynomial fit with a conservative window size to give random residuals. Raw ellipticity values were converted to mean residue ellipticity using standard methods, and plotted was the wavelength (from 200 to 260 nm) versus [θ]×10^−3 (degrees cm^2/dmol). Percent helicity values were then calculated using standard methods. Assessment of thermal stability was performed by monitoring the change in CD signal at 222 nm as temperature was raised in 2° C. steps, with 1 minute equilibration times. The thermal stability for each sample (e.g., synthetic peptide) was represented by the transition temperature (Tm) determined by the derivative method.
# HIV IIIB = format: cell-based, HIV-1
# [2] = Helicity by circular dichroism; format: physicochemical; details: at 10 μM, 25° C.
# Procedure: as §1
# [3] = system: HR2 peptide (SEQ ID NO:33); assay: Fluorescence polarization assay of binding to labeled HR2 peptide; design: species or system HIV-1; details: ability to complex with HR2 peptide denoted as yes
# Excerpt: These include a protein chip assay (using Biacore analysis) in which surface plasmon resonance is used to detect the binding, and kinetics thereof, between a synthetic peptide and an HR2 peptide; and a fluorescence polarization assay. In the fluorescence polarization assay, a detectable moiety comprising a fluorescent dye (e.g., rhodamine and/or fluorescein) was used to label HR2 peptide, and the assay was then allowed to proceed under sufficient conditions and for a sufficient period of time for labeled peptide to bind to HR1 peptide, or synthetic peptide (or trimer formed therefrom).
# [4] = Sedimentation equilibrium experiments (oligomerization state); format: physicochemical; details: in solution; peptide 1 μM to 100 μM
# Procedure: Oligomerization state was assessed by using methods standard in the art for performing sedimentation equilibrium experiments and for analysis of the resultant data. In that regard, sedimentation equilibrium experiments were performed over a concentration range of synthetic peptide (1 μM to 100 μM) as follows. Briefly, six-channel cells (12 mm optical path length) were used with an An-60 Ti rotor operated at 13,500 rpm, 18,000 rpm, 22,000 rpm, and 35,000 rpm) in an analytical ultracentrifuge at 4C. The cell radii were scanned using 0.001 cm steps with 10 averages/scan at 3 different wavelengths (235 nm, 240 nm, 280 nm). Data obtained with solutions containing synthetic peptide was analyzed using a single species model to determine a weight-averaged molecular weight (MW). Diagnostic plots of MW/ MW0 vs. rpm/rpm0 and MW vs. radial concentration were used to test for sample homogeneity. When systemic residuals or a MW higher than monomer molecular weight indicated the presence of self-association, associative models were investigated. The suitability of a model (goodness of fit) was judged by the trends observed in the residuals.
SMILES,Stability Tm [1],Antiviral activity against HIV IIIB IC50 (HIV IIIB; 50% reduction in infectious virus titer) [µg/mL],Antiviral activity against HIV IIIB IC90 (HIV IIIB; 90% reduction in infectious titer) [µg/mL],Helicity [2] [%],HR2 peptide binding [3],Oligomerization [4],Antiviral activity against HIV IIIB IC50 (HIV IIIB; IIIB) [µg/mL],Antiviral activity against HIV IIIB IC90 (HIV IIIB; IIIB) [µg/mL]
CC[C@H](C)[C@H](NC(=O)[C@H](Cc1ccc(O)cc1)NC(=O)[C@H](CCCNC(=N)N)NC(=O)[C@H](CCC(=O)O)NC(=O)[C@H](CC(C)C)NC(=O)[C@H](C)NC(=O)[C@H](CC(C)C)NC(=O)[C@@H](NC(=O)[C@H](CCCNC(=N)N)NC(=O)[C@H](C)NC(=O)[C@H](CCC(N)=O)NC(=O)[C@H](CC(C)C)NC(=O)[C@H](CCC(N)=O)NC(=O)[C@H](CCCCN)NC(=O)[C@@H](NC(=O)CNC(=O)[C@H](Cc1c[nH]c2ccccc12)NC(=O)[C@@H](NC(=O)[C@H](CC(C)C)NC(=O)[C@H](C)NC(=O)[C@H](CCC(N)=O)NC(=O)[C@@H](NC(=O)[C@H](C)NC(=O)[C@H](Cc1c[nH]cn1)NC(=O)[C@H](CCC(N)=O)NC(=O)[C@@H](NC(=O)[C@H](C)NC(=O)[C@H](CCC(=O)O)NC(=O)[C@H](CC(C)C)NC(=O)[C@H](C)NC(=O)[C@H](CCCNC(=N)N)NC(=O)[C@H](CC(C)C)NC(=O)[C@@H](NC(=O)[C@H](CC(N)=O)NC(=O)[C@H](CC(N)=O)NC(=O)[C@H](CCC(N)=O)NC(=O)[C@H](CCC(N)=O)NC(=O)[C@H](CCC(N)=O)NC(=O)[C@@H](NC(=O)[C@H](CC(C)C)NC(=O)CNC(=O)[C@H](CO)NC(=O)[C@@H](NC(=O)[C@H](CC(C)C)NC(=O)[C@H](CCC(N)=O)NC(=O)[C@H](CCCNC(=N)N)NC(=O)[C@H](C)NC(=O)[C@H](CCC(N)=O)NC(C)=O)C(C)C)C(C)C)[C@@H](C)CC)[C@@H](C)O)C(C)C)C(C)C)C(C)C)C(C)C)C(=O)N[C@@H](CCCCN)C(N)=O [SEQ ID NO:35],Tm >97 °C,0.14,0.69,78,Yes,Trimer,–,–
CC[C@H](C)[C@H](NC(=O)CNC(=O)[C@H](Cc1c[nH]c2ccccc12)NC(=O)[C@@H](NC(=O)[C@@H](NC(=O)[C@H](C)NC(=O)[C@H](CCC(N)=O)NC(=O)[C@H](CC(C)C)NC(=O)[C@H](CC(C)C)NC(=O)[C@H](Cc1c[nH]cn1)NC(=O)[C@H](CCC(N)=O)NC(=O)[C@H](CCC(N)=O)NC(=O)[C@H](C)NC(=O)[C@H](CCC(=O)O)NC(=O)[C@@H](NC(=O)[C@H](C)NC(=O)[C@H](CCCNC(=N)N)NC(=O)[C@H](CC(C)C)NC(=O)[C@H](CC(C)C)NC(=O)[C@H](CC(N)=O)NC(=O)[C@H](CC(N)=O)NC(=O)[C@H](CCC(N)=O)NC(=O)[C@H](CCC(N)=O)NC(=O)[C@H](CCC(N)=O)NC(=O)[C@@H](NC(=O)[C@@H](NC(=O)CNC(=O)[C@H](CO)NC(=O)[C@H](CC(C)C)NC(=O)[C@H](CC(C)C)NC(=O)[C@H](CCC(N)=O)NC(=O)[C@H](CCCNC(=N)N)NC(=O)[C@H](C)NC(=O)[C@H](CCC(N)=O)NC(C)=O)[C@@H](C)CC)C(C)C)[C@@H](C)CC)[C@@H](C)O)C(C)C)C(=O)N[C@@H](CCCCN)C(=O)N[C@@H](CCC(N)=O)C(=O)N[C@@H](CC(C)C)C(=O)N[C@@H](CCC(N)=O)C(=O)N[C@@H](C)C(=O)N[C@@H](CCCNC(=N)N)C(=O)N[C@H](C(=O)N[C@@H](CC(C)C)C(=O)N[C@@H](C)C(=O)N[C@H](C(=O)N[C@@H](CCC(=O)O)C(=O)N[C@@H](CCCNC(=N)N)C(=O)N[C@@H](Cc1ccc(O)cc1)C(=O)N[C@@H](CC(C)C)C(=O)N[C@@H](CCCCN)C(=O)N[C@@H](CC(=O)O)C(=O)N[C@@H](CCC(N)=O)C(N)=O)C(C)C)[C@@H](C)CC [SEQ ID NO:47],Tm 77 °C,–,–,68,Yes,a trimeric,0.61,–
CC[C@H](C)[C@H](NC(=O)CNC(=O)[C@H](Cc1c[nH]c2ccccc12)NC(=O)[C@@H](NC(=O)[C@@H](NC(=O)[C@H](C)NC(=O)[C@H](CCC(N)=O)NC(=O)[C@H](CC(C)C)NC(=O)[C@H](C)NC(=O)[C@H](Cc1c[nH]cn1)NC(=O)[C@H](CCC(N)=O)NC(=O)[C@H](CCC(N)=O)NC(=O)[C@H](C)NC(=O)[C@H](CCC(=O)O)NC(=O)[C@@H](NC(=O)[C@H](C)NC(=O)[C@H](CCCNC(=N)N)NC(=O)[C@H](CC(C)C)NC(=O)[C@H](CC(C)C)NC(=O)[C@H](CC(N)=O)NC(=O)[C@H](CC(N)=O)NC(=O)[C@H](CCC(N)=O)NC(=O)[C@H](CCC(N)=O)NC(=O)[C@H](CCC(N)=O)NC(=O)[C@@H](NC(=O)[C@@H](NC(=O)CNC(=O)[C@H](CO)NC(=O)[C@H](CC(C)C)NC(=O)[C@H](CC(C)C)NC(=O)[C@H](CCC(N)=O)NC(=O)[C@H](CCCNC(=N)N)NC(=O)[C@H](C)NC(=O)[C@H](CCC(N)=O)NC(C)=O)[C@@H](C)CC)C(C)C)[C@@H](C)CC)[C@@H](C)O)C(C)C)C(=O)N[C@@H](CCCCN)C(=O)N[C@@H](CCC(N)=O)C(=O)N[C@@H](CC(C)C)C(=O)N[C@@H](CCC(N)=O)C(=O)N[C@@H](C)C(=O)N[C@@H](CCCNC(=N)N)C(=O)N[C@H](C(=O)N[C@@H](CC(C)C)C(=O)N[C@@H](C)C(=O)N[C@H](C(=O)N[C@@H](CCC(=O)O)C(=O)N[C@@H](CCCNC(=N)N)C(=O)N[C@@H](Cc1ccc(O)cc1)C(=O)N[C@H](C(=O)N[C@@H](CCCCN)C(=O)N[C@@H](CC(=O)O)C(=O)N[C@@H](CCC(N)=O)C(N)=O)[C@@H](C)CC)C(C)C)[C@@H](C)CC [SEQ ID NO:40],62 °C,–,–,53,Yes,Trimer*,0.41,1.84
CC[C@H](C)[C@H](NC(=O)CNC(=O)[C@H](Cc1c[nH]c2ccccc12)NC(=O)[C@H](C)NC(=O)[C@@H](NC(=O)[C@H](CC(C)C)NC(=O)[C@H](CCC(N)=O)NC(=O)[C@H](CC(C)C)NC(=O)[C@H](CC(C)C)NC(=O)[C@H](Cc1c[nH]cn1)NC(=O)[C@H](CCC(N)=O)NC(=O)[C@H](CCC(N)=O)NC(=O)[C@H](C)NC(=O)[C@H](CCC(=O)O)NC(=O)[C@@H](NC(=O)[C@H](C)NC(=O)[C@H](CCCNC(=N)N)NC(=O)[C@H](CC(C)C)NC(=O)[C@H](CC(C)C)NC(=O)[C@H](CC(N)=O)NC(=O)[C@H](CC(N)=O)NC(=O)[C@H](CCC(N)=O)NC(=O)[C@H](CCC(N)=O)NC(=O)[C@H](CCC(N)=O)NC(C)=O)[C@@H](C)CC)[C@@H](C)O)C(=O)N[C@@H](CCCCN)C(=O)N[C@@H](CCC(N)=O)C(=O)N[C@@H](CC(C)C)C(=O)N[C@@H](CCC(N)=O)C(=O)N[C@@H](C)C(=O)N[C@@H](CCCNC(=N)N)C(=O)N[C@H](C(=O)N[C@@H](CC(C)C)C(=O)N[C@@H](C)C(=O)N[C@H](C(=O)N[C@@H](CCC(=O)O)C(=O)N[C@@H](CCCNC(=N)N)C(=O)N[C@@H](Cc1ccc(O)cc1)C(=O)N[C@@H](CC(C)C)C(=O)N[C@@H](CCCCN)C(=O)N[C@@H](CC(=O)O)C(=O)N[C@@H](CCC(N)=O)C(N)=O)C(C)C)[C@@H](C)CC [SEQ ID NO:29],Tm 65 °C,–,–,78,Yes,Trimer*,2.81,5.86

# Read-outs that look alike come from different tables or passages of the source.
